Results of unrelated studies side by side (data: NIAID ChemDB).

Common to all: tests in culture; organism: Varicella zoster virus; read-out: EC50

ECn: concentration that inhibits the pathogen or its effect by n%.

{"SMILES": "OC[C@H]1CC(n2cnc3c(NC4CC4)ncnc32)C[C@@H]1CO", "cells": "HEL", "strain or isolate": "07/1 (TK-)", "result": ">100 µg/mL"}
{"SMILES": "O=c1[nH]c(=O)n([C@H]2C[C@H](O)[C@@H](CO)O2)cc1/C=C/Br", "cells": "HEL", "strain or isolate": "ULF PE 9/84 (TK+)", "result": "0.6–0.9 µM"}
{"SMILES": "CC/C=C/c1cccc(-c2cc3cn([C@H]4C[C@H](O)[C@@H](CO)O4)c(=O)nc3o2)c1", "cells": "HEL", "result": ">12 µM"}
{"SMILES": "Nc1nc2c(ncn2COCCO)c(=O)[nH]1", "cells": "HEL 299", "result": "4 µM"}
{"SMILES": "Nc1ncnc2c1ncn2[C@@H]1C[C@H](CO)[C@@H](O)[C@@H]1O", "cells": "HEL", "strain or isolate": "TK-", "result": "≤50 µM"}
{"SMILES": "Cc1ccn2c(C3SCCS3)cnc2c1", "cells": "HEL", "strain or isolate": "OKA", "result": ">1000 µM"}
{"SMILES": "CCOC(=O)/C=C/C=C/[C@H]1O[C@@H](n2ccc(=O)[nH]c2=O)[C@H](O)[C@@H]1O", "cells": "HEL", "strain or isolate": "OKA", "result": ">120 µM"}
{"SMILES": "O=C1O/C(=C\\Cn2ccc(=O)[nH]c2=O)C(OCc2ccccc2)=C1O", "cells": "HEL", "strain or isolate": "TK-", "result": ">50 µg/mL"}
{"SMILES": "O=c1[nH]c(=O)n([C@@H]2C[C@@H](O)[C@H](CO)O2)cc1/C=C/Br", "cells": "HEL 299", "result": ">100 µM"}
{"SMILES": "Cc1ccn2c(C(SCCc3ccccc3)SCCc3ccccc3)cnc2c1", "cells": "HEL", "strain or isolate": "Strain 07/1", "result": ">1000 µM"}
{"SMILES": "O=C1OC(C(O)Cn2cc(F)c(=O)[nH]c2=O)C(OCc2ccccc2)=C1OCc1ccccc1", "cells": "HEL", "strain or isolate": "TK-", "result": ">50 µg/mL"}
{"SMILES": "Nc1nc2c(ncn2CC(CO)CCO)c(=O)[nH]1", "cells": "HEL", "strain or isolate": "ULF PE 9/84 (TK+)", "result": "0.4–0.7 µM"}
{"SMILES": "CC(C)Nc1ncnc2c1ncn2C1C[C@H](CO)[C@@H](CO)C1", "cells": "HEL", "strain or isolate": "OKA", "result": ">100 µg/mL"}
{"SMILES": "Cc1cccn2c(C3OCCO3)cnc12", "cells": "HEL", "strain or isolate": "OKA", "result": ">1000 µM"}
{"SMILES": "CCCCCc1ccc(-c2cc3cn(C4C[C@H](F)[C@@H](CO)O4)c(=O)nc3o2)cc1", "strain or isolate": "07 (TK-)", "result": ">2 µM"}
{"SMILES": "O=C1OC(C(O)Cn2ccc(=O)[nH]c2=O)C(OCc2ccccc2)=C1OCc1ccccc1", "cells": "HEL", "strain or isolate": "TK-", "result": ">50 µg/mL"}
{"SMILES": "CN[C@H]1C[C@@H](n2cnc3c(N)ncnc32)[C@H](O)[C@@H]1O", "cells": "HFF", "result": "81.7 µg/mL"}
{"SMILES": "Cc1cccn2c(C3OCCS3)cnc12", "cells": "HEL", "strain or isolate": "Strain 07/1", "result": ">1000 µM"}
{"SMILES": "O=c1[nH]c(=O)n(C2C[C@H](CO)[C@@H](CO)C2)cc1I", "cells": "HEL", "strain or isolate": "OKA", "result": ">100 µg/mL"}
{"SMILES": "Nc1nc2c(ncn2[C@@H]2C=C[C@H](CO)[C@@H](O)C2)c(=O)[nH]1", "strain or isolate": "KOS (TK-)", "result": "2.1 µg/mL"}

A second listing of 3 rows from above:

| SMILES | cells | strain or isolate | result |
|---|---|---|---|
| Nc1ncnc2c1ncn2[C@@H]1C[C@H](CO)[C@@H](O)[C@@H]1O | HEL | TK- | ≤50 µM |
| OC[C@H]1CC(n2cnc3c(NC4CC4)ncnc32)C[C@@H]1CO | HEL | 07/1 (TK-) | >100 µg/mL |
| O=C1OC(C(O)Cn2cc(F)c(=O)[nH]c2=O)C(OCc2ccccc2)=C1OCc1ccccc1 | HEL | TK- | >50 µg/mL |

Rows are shuffled and stem from different studies. Two numbers with a dash give a range or band.